A mixed list of measured activities; the numbers were collected in NIAID ChemDB.

All rows: growth or infection tests; agent: Poliovirus; endpoint: inhibition

Neighbouring rows are from separate reports. Inhibition is in % at the dose shown (toxicity tests: loss of growth or viability). For "inactive" no cut-off is given.

smiles,strain,cells,dose,result
COc1cc(C(=O)Oc2c(-c3ccc(Cl)c(Cl)c3)oc3ccccc3c2=O)cc(OC)c1OC(C)=O,TYPE 2,HeLa,1.29 µM,inactive
CC(C)=CCCC(COS(=O)(=O)O)C1CCC2C3CC=C4C[C@H](O)[C@@H](OS(=O)(=O)O)CC4(C)C3CCC12C,TYPE 3,VERO,80 µg/mL,6.8%
C=C(CC[C@@H](COS(=O)(=O)O)[C@H]1CC[C@H]2[C@@H]3CC[C@@H]4[C@H](O)[C@H](OS(=O)(=O)O)CC[C@]4(C)[C@H]3[C@@H](O)C[C@]12C)C(C)C,SABIN (TYPE 3),VERO,40 µg/mL,54%
CC(=O)c1ccc2c(c1)[S@@](=O)c1ccccc1O2,TYPE 3,BSC-1,0.4 µg/mL,20%
COc1cc(C(=O)Oc2c(-c3ccc(Cl)cc3)oc3ccccc3c2=O)ccc1OC(C)=O,TYPE 2,HeLa,6.25 µM,10%
Clc1ccc2c(c1)C=C(c1ccccc1)CO2,SABIN (TYPE 2),HEP-2,10 µM,100%
CC(O)c1ccc2c(c1)Sc1cc(C(C)O)ccc1O2,TYPE 3,BSC-1,2 µg/mL,20%
CCC(=O)C(CCCCCCOc1ccc(OC)cc1Cl)C(=O)CC,MEF (TYPE 2),HeLa,0.04 µM,31%
CC(O)c1cccc(Cc2ccccc2)c1,TYPE 3,BSC-1,2 µg/mL,93%
CC(C)C/C=C/[C@@H](COS(=O)(=O)O)[C@H]1CC[C@H]2[C@@H]3CC[C@@H]4[C@H](O)[C@H](OS(=O)(=O)O)CC[C@]4(C)[C@H]3[C@@H](O)C[C@]12C,SABIN (TYPE 3),VERO,10 µg/mL,31%
CC(O)c1ccc2c(c1)Cc1ccccc1O2,TYPE 3,BSC-1,2 µg/mL,100%
Brc1ccc(C2=Cc3ccccc3OC2)cc1,TYPE 2,HEP-2,10 µM,0%
CC12CC[C@H](OS(=O)(=O)O)CC1=CCC1C2CCC2(C)C(C(=O)COS(=O)(=O)O)CCC12,TYPE 3,VERO,80 µg/mL,0%
CCC(=O)c1ccc2c(c1)Sc1ccccc1O2,TYPE 3,BSC-1,10 µg/mL,100%
Clc1ccc(C2COc3ccc(Cl)cc3C2)cc1,IB (TYPE 2),HEP-2,10 µM,0%
COc1cc(C(=O)Oc2c(-c3ccc(Cl)cc3)oc3ccccc3c2=O)cc(OC)c1OC(C)=O,TYPE 2,HeLa,1.56 µM,18%
CC(C)=CCC[C@@H](COS(=O)(=O)O)C1CCC2C3CC[C@H]4C[C@H](OS(=O)(=O)O)[C@@H](O)CC4(C)C3CCC21C,TYPE 3,VERO,80 µg/mL,42.5%
Brc1ccc(C2=Cc3cc(Br)ccc3OC2)cc1,IB (TYPE 2),HEP-2,10 µM,0%
O=c1c(O)c(-c2ccc(Cl)c(Cl)c2)oc2ccccc12,TYPE 2,HeLa,6.25 µM,15%
Clc1ccc2c(c1)C=C(c1ccc(Br)cc1)CO2,IA (TYPE 2),HEP-2,10 µM,48%
CC(O)c1ccc2c(c1)Sc1ccccc1O2,TYPE 3,BSC-1,2 µg/mL,100%
COc1cc(/C=C/C(=O)Oc2c(-c3ccc(Cl)cc3)oc3ccccc3c2=O)ccc1O,TYPE 2,HeLa,6.25 µM,12%
C1=C(c2ccccc2)COc2ccccc21,SABIN (TYPE 2),HEP-2,10 µM,100%

Repeating the first 2 entries:

COc1cc(C(=O)Oc2c(-c3ccc(Cl)c(Cl)c3)oc3ccccc3c2=O)cc(OC)c1OC(C)=O ; strain: TYPE 2 ; cells: HeLa ; dose: 1.29 µM ; result: inactive
CC(C)=CCCC(COS(=O)(=O)O)C1CCC2C3CC=C4C[C@H](O)[C@@H](OS(=O)(=O)O)CC4(C)C3CCC12C ; strain: TYPE 3 ; cells: VERO ; dose: 80 µg/mL ; result: 6.8%